The subject of this experiment is Severe acute respiratory syndrome coronavirus 2. Nature of the experiment: Inhibition of SARS-CoV-2 MPro using Boc-Abu-Tle-Leu-Gln-AMC as substrate assessed as Kinact/Ki ratio preincubated for 5 mins followed by substrate addition and measured after 60 mins. The note with it: time 65.0 min.

In the case of `C=CC(=O)[C@H](Cc1ccccc1)NC(=O)[C@H](CC(C)C)NC(=O)/C=C/c1ccc(OC(F)(F)F)cc1`, the Ratio came out at 7720 M⁻¹ s⁻¹.
`C=CC(=O)[C@H](Cc1ccccc1)NC(=O)[C@H](CC(C)C)NC(=O)/C=C/c1ccc(N(C)C)cc1`: the Ratio stood at 9200 M⁻¹ s⁻¹.
Take `C=CC(=O)[C@H](Cc1cccc(F)c1)NC(=O)[C@H](CC(C)C)NC(=O)COc1ccc(Cl)cc1Cl`: the Ratio turned out to be 24500 M⁻¹ s⁻¹.
For the molecule `C=CC(=O)[C@H](Cc1ccccc1)NC(=O)[C@H](CC(C)C)NC(=O)C(C)(C)Sc1ccccc1`, the Ratio was found to be 73700 M⁻¹ s⁻¹.
To `C=CC(=O)[C@H](Cc1ccccc1)NC(=O)[C@H](CC(C)C)NC(=O)CCc1ccc(Cl)cc1Cl` belongs 35800 M⁻¹ s⁻¹; to `C=CC(=O)[C@H](Cc1ccccc1)NC(=O)[C@H](CC(C)C)NC(=O)c1cc2ccccc2n1C`, 41000 M⁻¹ s⁻¹.
Turning to `C=CC(=O)[C@H](Cc1ccccc1)NC(=O)[C@H](CC(C)C)NC(=O)COc1ccc(Cl)cc1`, the Ratio worked out at 23800 M⁻¹ s⁻¹.

These data come from ChEMBL document CHEMBL6153062, “Design, Synthesis, and Unprecedented Interactions of Covalent Dipeptide-Based Inhibitors of SARS-CoV-2 Main Protease and Its Variants Displaying Potent Antiviral Activity” (J Med Chem, 2025).
